Pooled drug test results. Numbers come from NIAID ChemDB, via PubChem.

All rows: growth or infection tests; species: Candida albicans; endpoint: MIC

Neighbouring rows are from separate reports.

smiles	strain	value
CC(C)C1=C[C@H]2C[C@]3(C=O)[C@@H]4CC[C@@H](C)[C@H]4C[C@@]2(CO[C@H]2C[C@@H]4OC(C)(C)O[C@@H]4[C@@H](C)O2)[C@]13C(=O)O	2005E	<0.001 µg/mL
COC1=CC(=O)C[C@@H](C)[C@]12Oc1c(Cl)c(OC)cc(OC)c1C2=O	10231	50 µg/mL
O=C1C(Sc2ccccc2Cl)=C(Sc2ccccc2Cl)C(=O)c2ncccc21	ATCC 10231	25 µg/mL
C=C(CCCCCNC1NCCC2c3ccc(OC)cc3CCN12)C(C)C	NFI2103	32 µg/mL
CCn1nc(-c2cc(C)on2)c(N=O)c1C		66 µM
CCCCCCCCNC1NCCC2c3ccccc3CCN12	NFI2103	16 µg/mL
COc1cc(O)c2c(c1)C(=O)c1c(cc3c(c1O)-c1c(cc(C)c(C(=O)NC(CO)C(=O)O)c1O)[C@H](OC1OC(C)C(O)C(OC4OCC(O)C(O)C4O)C1O)C3O)C2=O	97 strains	4 µg/mL
CCOC(=O)c1ccc2c(c1)nc(-c1ccc(C(=O)NN(CC)CC)cc1)n2Cc1ccccc1	ATCC 10231	50 µg/mL
Cc1ccc(CC(=O)Nc2ccc(N)cc2O)cc1	ATCC 10231	250 µg/mL
CC(N1CCN(c2ccc(-n3cnnn3)cc2)C1=O)[C@@](O)(Cn1cncn1)c1ccc(F)cc1F	TA	>16 µg/mL
Nc1ccc(NC(=O)Cc2ccc(Cl)cc2)c(O)c1	ATCC 10231	62.5 µg/mL
CCOC(=O)c1ccc2c(c1)nc(-c1ccc(C(N)=NCc3ccc(Cl)c(Cl)c3)cc1)n2Cc1ccc(Cl)cc1Cl	ATCC 10231	6.25 µg/mL
CCc1ccc(C(=O)Nc2cc([N+](=O)[O-])ccc2O)cc1	ATCC 10231	7.8 µg/mL
Cc1cccc(SC2=C(Sc3cccc(C)c3)C(=O)c3ncccc3C2=O)c1	ATCC 10231	12.5 µg/mL
CC(C)(C)c1ccc(C(=O)Nc2ccc(N)cc2O)cc1	ATCC 10231	15.6 µg/mL
C=C(CN(C)C)C(=O)c1ccc(Cl)cc1		32 µg/mL
O=C(c1cc(O)c(O)c(Br)c1Br)c1cc(O)c(O)c(Br)c1Br	ATCC 10231	100 µg/mL
COc1ccc2c(c1)CCN1C(NCCCCCC=C(C)C)NCCC21	NFI0124	64 µg/mL
COC(=O)C(CC(C)C)NC1=CC(=O)c2ccccc2C1=O		>50 µg/mL
CCOC(=O)c1ccc2c(c1)nc(-c1ccc(C(N)=NCc3ccc(Cl)cc3)cc1)n2Cc1ccccc1	ATCC 10231	12.5 µg/mL
COC(=O)C(C)NC1=C(O)c2ccccc2C(=O)C1=O		>50 µg/mL
CCc1ccc(SC2=C(Sc3ccc(CC)cc3)C(=O)c3ncccc3C2=O)cc1	ATCC 10231	6.3 µg/mL
CCOC(=O)c1ccc2nc(-c3ccc(C(N)=NC(C)C)cc3)[nH]c2c1	ATCC 10231	50 µg/mL
Cc1ccc(CC(=O)Nc2ccc([N+](=O)[O-])cc2O)cc1	ATCC 10231	250 µg/mL
COc1ccc2c(c1)CCN1C(NCCCCCCC(C)C)NCCC21	NFI2103	16 µg/mL
C=C1/C=C(\C)[C@H](CC)OC(=O)[C@H](C)C(=O)C(O)(CO)C/C(OC)=C/[C@@H](C)C1	MY1055	4 µg/mL
Nc1ccc(NC(=O)c2ccccc2)c(O)c1	ATCC 10231	125 µg/mL
CCCN=C(NCCC)c1ccc(-c2nc3cc(C(=O)OCC)ccc3n2CCC)cc1	ATCC 10231	50 µg/mL
COC12OC1(C13OC1(OC)C(=O)c1cc4cc(C)oc(=O)c4c(O)c1C3O)C(O)c1c(cc3cc(C)oc(=O)c3c1O)C2=O	A9540	25 µg/mL
Clc1ccc(COC(Cn2ccnc2)c2ccc(Cl)cc2Cl)c(Cl)c1		7 µM
C=C(CN1CCOCC1)C(=O)c1ccc(OC)cc1		128 µg/mL
CCOC1Oc2ccccc2C(=O)/C1=C\Nc1ccc(C(=O)O)c(O)c1		10 µg/mL
C=C(CN1CCOCC1)C(=O)c1ccccc1		16 µg/mL
Cc1cc(-c2nn(CCO)c(C)c2N=O)no1		>200 µM
O=C1C(Sc2ccccc2)=C(Sc2ccccc2)C(=O)c2ncccc21	ATCC 10231	3.2 µg/mL
CC1=CCC[C@H]2[C@](C)(CC3=C(O)C(NCC(=O)O)=CC(=O)C3=O)[C@@H](C)CC[C@]12C		2.5 µg/mL
Cc1c(O)cccc1C(=O)N[C@@H](CSc1ccccc1)[C@H](O)CN1C[C@H]2CCCC[C@H]2C[C@H]1C(=O)NC(C)(C)C	I51	64 µg/mL
C=C(CN1CCN(C)CC1)C(=O)c1ccc(Cl)cc1		64 µg/mL
Cc1cc(-c2nn(C)c(C)c2N=O)no1		>200 µM
C[C@@H](N1CCN(c2ccc(-n3cnnn3)cc2)C1=O)[C@](O)(Cn1cncn1)c1ccc(F)cc1F	CA383	>16 µg/mL
CCOC(=O)c1ccc2c(c1)nc(-c1ccc(C(N)=NCc3ccc(Cl)cc3)cc1)n2Cc1ccc(Cl)cc1Cl	ATCC 10231	12.5 µg/mL
CCCn1nc(C)c(N=O)c1-c1cc(C)on1		7.4 µM
COc1ccc(SC2=C(Sc3ccc(OC)cc3)C(=O)c3ncccc3C2=O)cc1	ATCC 10231	6.3 µg/mL
Cc1cc(-c2n[nH]c(C)c2N=O)no1		>200 µM
Cc1ccc(SC2=C(Sc3ccc(C)cc3)C(=O)c3c(C)cc(Cl)nc3C2=O)cc1	ATCC 10231	6.3 µg/mL

A second listing of 3 rows from above:

| smiles | strain | value |
|---|---|---|
| CCOC1Oc2ccccc2C(=O)/C1=C\Nc1ccc(C(=O)O)c(O)c1 |  | 10 µg/mL |
| CCOC(=O)c1ccc2c(c1)nc(-c1ccc(C(N)=NCc3ccc(Cl)cc3)cc1)n2Cc1ccccc1 | ATCC 10231 | 12.5 µg/mL |
| C=C(CCCCCNC1NCCC2c3ccc(OC)cc3CCN12)C(C)C | NFI2103 | 32 µg/mL |

Blank or dashed fields: not listed here.